Patent US20050170334A1

Assays:
Test in all cases: ELISA, peptide coated, antibody 10 µg/ml
NM17 (influenza A virus) = molecular target: NM17 (influenza A virus)
M16 (influenza A virus) = molecular target: M16 (influenza A virus)
M15 (influenza A virus) = molecular target: M15 (influenza A virus)
NM15 (influenza A virus) = molecular target: NM15 (influenza A virus)
NM16 (influenza A virus) = molecular target: NM16 (influenza A virus)

B1: N547 (antibody, V domains shown)
VH: EVQLVESGGGLVKPGGSLRLSCAASGFTFSNALMSWVRQAPGKGLEWVGRIKSKTNGGTTDYAAPVKGRFTISRDDSKNTLYLQMNSLKTEDTAVYYCTTHLRYFDWLSDYWGQGTLVTVSS
VL: QSVLTQPPSMSAAPGQKVTISCSGSSSNIGNNYISWYQQLPGTAPKVLIYDNNKRPSGIPDRFSGSKSGTSATLGITGLQTGDEADYYCGSWDSSLSAGVFGTGTKVTVLG
- ELISA (OD450) (NM17 (influenza A virus)): 1.04 OD450
- ELISA (OD450) (M16 (influenza A virus)): 0.68 OD450
- ELISA (OD450) (M15 (influenza A virus)): 0.07 OD450
- ELISA (OD450) (NM15 (influenza A virus)): 0.09 OD450
- ELISA (OD450) (NM16 (influenza A virus)): 1.13 OD450
